Pooled drug test results. Numbers come from NIAID ChemDB, via PubChem.

Shared fields: tests in culture; species: HIV-1; cell line: PBMC; measure: EC50

Blank or dashed fields: not listed here. Lines come from different laboratories, so protocols vary. ECn is the concentration giving n% inhibition of infection, replication or growth.

compound,strain,mutations,read by,conditions,result
C#C[C@]1(CO)O[C@@H](n2cnc3c(N)nc(F)nc32)C[C@@H]1O,-,-,single cycle / fluorescence,-,0.00023 µM
Cc1cn([C@H]2C[C@H](N=[N+]=[N-])[C@@H](CO)O2)c(=O)[nH]c1=O,Recombinant,RT-T215Y,p24,-,~0.02 µM
CC(C)CN(C[C@@H](O)[C@H](Cc1ccccc1)NC(=O)O[C@H]1CCOC1)S(=O)(=O)c1ccc(N)cc1,Clinical isolate,L10I K14R L33I M36I M46I F53I K55R I62V L63P A71V G73S V82A L90M I93L,p24 / luminescence,"clinical isolate, multidrug-resistant",0.048 µM
Cc1cn([C@H]2C[C@H](N=[N+]=[N-])[C@@H](CO)O2)c(=O)[nH]c1=O,XM-ABC-resistant,RT-K65R L74V M184V Y115F,p24,-,<0.04 µM
Nc1nc(=O)n([C@@H]2CS[C@H](CO)O2)cc1F,LAV,-,RT activity,-,0.008 µM
CCCCCOC(=O)C[C@H](NP(=O)(CO[C@@H](CF)Cn1ccc2c(=O)[nH]c(N)nc21)N[C@@H](CC(=O)OCCCCC)C(=O)OCCCCC)C(=O)OCCCCC,NL4-3,-,luciferase,-,1.81 µM
Cc1cn([C@H]2C[C@H](N=[N+]=[N-])[C@@H](CO)O2)c(=O)[nH]c1=O,CLADE B,-,cytopathic effect / XTT,-,0.001 µM
Nc1ccn([C@H]2CC[C@@H](CO)O2)c(=O)n1,HXB2 WT,-,p24,-,0.06 µM
CC(C)CN(C[C@@H](O)[C@H](Cc1cc(F)cc(F)c1)NC(=O)O[C@H]1CCO[C@H]2OCC[C@H]21)S(=O)(=O)c1ccc2nc(NC(C)C)sc2c1,97ZA003,-,p24 / luminescence,-,0.0006 µM
Cc1cn([C@H]2C[C@H](N=[N+]=[N-])[C@@H](CO)O2)c(=O)[nH]c1=O,477 clinical isolates delavirdine-resistant,-,p24,-,<0.3 µM
COC(=O)[C@H](C)NP(=O)(OC[C@@H]1C=C[C@H](n2cc(C)c(=O)[nH]c2=O)O1)Oc1ccc(Br)cc1,C467-4 NRTI resistant,RT-K20R D67N K70R Y188L T215F K219Q,p24,-,0.042 µM
S=C(NCCc1cccs1)Nc1ccc(Br)cn1,G190-6 Clinical isolate NRTI-resistant,RT-M41L D67N K70R T215Y K219Q,p24,-,0.0005 µM
Cc1cn([C@H]2C[C@H](N=[N+]=[N-])[C@@H](CO)O2)c(=O)[nH]c1=O,R112789,-,p24,-,0.2 µM
O=C1N(Cc2ccc(CO)cc2)[C@H](Cc2ccccc2)[C@H](O)[C@@H](O)[C@@H](Cc2ccccc2)N1Cc1ccc(CO)cc1,PB clinical isolate,-,p24,-,0.04 µM
Cc1c(O)cccc1C(=O)N[C@@H](CSc1ccccc1)[C@H](O)CN1C[C@H]2CCCC[C@H]2C[C@H]1C(=O)NC(C)(C)C,LAI Laboratory isolate,-,p24,-,0.009 µM
CC(C)OC(=O)[C@H](C)N[P@](=O)(CO[C@H](C)Cn1cnc2c(N)ncnc21)Oc1ccccc1,BaL,-,luciferase,-,0.0024 µM
CC[C@H](C)[C@H]1NC(=O)[C@@H](NC(=O)[C@@H](CC(C)C)N(C)C(=O)c2cc3ccccc3s2)[C@@H](C)OC(=O)[C@H](Cc2ccc(OC)cc2)N(C)C(=O)[C@@H]2CCCN2C(=O)[C@H](CC(C)C)NC(=O)[C@H](C(C)C)OC(=O)C[C@@H]1O,NL4-3,Delta-env-VSV-Luc,luciferase,-,0.008 µM
C[C@@H](NC(=S)Nc1ccc(Cl)cn1)c1cccc2ccccc12,NNRTI-resistant (RT Y181C) A17,RT-Y181C,p24,-,0.043 µM
CC(C)(C)NC(=O)[C@@H]1CN(Cc2cccnc2)CCN1C[C@@H](O)C[C@@H](Cc1ccccc1)C(=O)N[C@H]1c2ccccc2C[C@H]1O,Clinical isolate,PR-L10I K14R R41K M46L I54V L63P A71V V82A L90M I93L,p24,-,0.3 µM
CC(C)OC(=O)OCOP(=O)(CO[C@H](C)Cn1cnc2c(N)ncnc21)OCOC(=O)OC(C)C,NL4-3,-,luciferase,-,0.0023 µM
Oc1ccc(/C=C/c2cc(O)cc(O)c2)cc1,EJC-R1,-,p24,clinical isolate,>10 µM
C[C@@H](CNC(=S)Nc1ccc(Cl)cn1)c1ccccc1,NNRTI-resistant (RT Y181C) A17,RT-Y181C,p24,-,0.26 µM
CC[C@H](C)[C@H]1NC(=O)[C@@H](NC(=O)[C@@H](C)N(C)C(=O)OCc2ccccc2)[C@@H](C)OC(=O)[C@H](Cc2ccc(OC)cc2)N(C)C(=O)[C@@H]2CCCN2C(=O)[C@H](CC(C)C)NC(=O)[C@@H](C)C(=O)[C@H](C(C)C)OC(=O)C[C@@H]1O,NL4-3,-,luciferase,-,7.9 µM
Cc1ccc(-c2ccc3c(c2)C=C(C(=O)Nc2ccc(C[N+](C)(C)C4CCOCC4)cc2)CCC3)cc1,BAL R5,-,antigen,-,>1 µg/mL
CCO/N=C(\c1ccc(Br)cc1)C1CCN(C2(C)CCN(C(=O)c3c(C)cc[n+]([O-])c3C)CC2)CC1,JRFL R5 CLADE B,-,p24,-,0.00245 µM
CCc1cc(NCc2nc3c(Cl)ccc(Cl)c3o2)c(=O)[nH]c1C,Clinical isolate (RT M41L),RT-M41L,p24,-,<0.1 µM
[N-]=[N+]=N[C@@H]1C[C@@H](n2cc(F)c(N)nc2=O)O[C@H]1CO,LAV,-,RT activity,-,0.05 µM
Cc1cccc(NC(=S)NC[C@H](C)c2ccccc2)n1,NNRTI-resistant (RT Y181C) A17,RT-Y181C,p24,-,1.4 µM
CC(C)c1nc(CN(C)C(=O)N[C@H](C(=O)N[C@@H](Cc2ccccc2)C[C@H](O)[C@H](Cc2ccccc2)NC(=O)OCc2cncs2)C(C)C)cs1,Clinical isolate,PR-L10I V11I T12E I15V L19I R41K M46L L63 A71T V82A L90M,p24,-,>1 µM
CCC[C@@]1(CCc2ccccc2)CC(O)=C([C@H](CC)c2cccc(NS(=O)(=O)c3ccc(C(F)(F)F)cn3)c2)C(=O)O1,Isolate N. Amer 7,-,p24,-,<0.16 µM
CN[C@@H]1[C@H](O[C@@H]2OC[C@@H](O)[C@H](O)[C@H]2O)[C@@H](O)[C@H](O[C@H]2c3cc(C)c(C(=O)N[C@H](C)C(=O)O)c(O)c3-c3c(cc4c(c3O)C(=O)c3cc(OC)cc(O)c3C4=O)[C@@H]2O)O[C@@H]1C,NL4-3 X4,-,p24,-,0.69 µg/mL
Cc1csc(NC(=S)N[C@H](C)c2ccccc2)n1,NNRTI-resistant (RT Y181C) A17,RT-Y181C,p24,-,0.164 µM
Nc1nc2c(c(F)cn2C[C@H](CF)OCP(=O)(O)O)c(=O)[nH]1,NL4-3,-,luciferase,-,>100 µM
O=c1[nH]cnc2c1ncn2[C@H]1CC[C@@H](CO)O1,BCF11,RT-A98G K103R,-,-,0.45 µM
CC(C)(C)C(=O)SCCOP(=O)(OCCSC(=O)C(C)(C)C)OC[C@H]1CC[C@@H](n2cnc3c(N)ncnc32)O1,LAV,-,RT activity,-,0.002 µM
CC(C)[C@H](NC(=O)c1ccc2ccccc2n1)C(=O)N[C@@H](Cc1ccccc1)[C@H](O)CN1CC[C@@H](OCc2ccncc2)C[C@H]1C(=O)NC(C)(C)C,UHC-1,-,p24 / ELISA / antigen,-,0.004 µM
Cc1cn([C@H]2C=C[C@@H](CO)O2)c(=O)[nH]c1=O,Recombinant,RT-V75I F77L F116Y Q151M,p24,-,0.67 µM
Cc1cn([C@H]2C[C@H](F)[C@@H](CO)O2)c(=O)[nH]c1=O,4737,-,ELISA,-,0.005 µM
COc1ccc(S(=O)(=O)N(CC(C)C)C[C@@H](O)[C@H](Cc2ccccc2)NC(=O)O[C@H]2CO[C@H]3OCC[C@H]32)cc1,Clinical isolate,PR-L10I K14R R41K M46L I54V L63P A71V V82A L90M I93L,p24,-,0.005 µM
Nc1ccn([C@H]2CC[C@@H](CO)O2)c(=O)n1,Isolate 2748,-,p24,-,0.07 µM
Cc1cn([C@@H]2C[C@@H](N=[N+]=[N-])[C@H](CO)O2)c(=O)[nH]c1=O,LAV,-,RT activity,-,>100 µM
C[C@H](NC(=O)[C@H](CCCN=C(N)N)NC(=O)c1ccc(CNCc2ccccn2)cc1)c1cccc2ccccc12,YU-6 X4 clinical isolate,-,p24,-,0.046 µM
O=c1[nH]cnc2c1ncn2[C@H]1CC[C@@H](CO)O1,NL-XM WT,-,p24,-,<28 µM
CC(=O)N1CCC(C(=O)N(CCCN2CCC(Cc3ccc(C(N)=O)cc3)CC2)c2ccc(C)c(Cl)c2)CC1,SW X4 clinical isolate,-,p24,-,>10 µM
C[C@@H](NC(=S)Nc1nc2ccccc2s1)c1cccc2ccccc12,IIIB,-,p24,-,0.205 µM
O=c1[nH]cnc2c1ncn2[C@H]1CC[C@@H](CO)O1,-,RT-L74V T215Y K219Q,p24,-,4 µM
O=c1[nH]cnc2c1ncn2[C@H]1CC[C@@H](CO)O1,ddI-resistant (RT K65R/L74V/M184V),RT-A62V V75I F77L Q151M,p24,-,>10 µM
Nc1ccn([C@@H]2CS[C@H](CO)O2)c(=O)n1,4755-5 NRTI resistant recombinant,RT-M41L E44D D67N T69D Y118I M184V L210W T215Y,p24,-,>10 µM
CC[C@H](C)[C@H]1NC(=O)[C@@H](NC(=O)[C@H](CC(C)C)N(C)C(=O)[C@@H]2CCCN2C(=O)C(C)=O)[C@@H](C)OC(=O)[C@H](Cc2ccc(OC)cc2)N(C)C(=O)[C@@H]2CCCN2C(=O)[C@H](CC(C)C)NC(=O)[C@@H](C)C(=O)[C@H](C(C)C)OC(=O)C[C@@H]1O,NL4-3,-,luciferase,-,0.03 µM
Cc1ccnc2c1NC(=O)c1cccnc1N2C1CC1,BCF11,RT-A98G K103R,-,-,0.59 µM
C[C@@H](CNC(=S)Nc1ccc(Br)cn1)c1ccccc1,IIIB,-,p24,-,0.003 µM
CO[P@](=O)(c1cc(C)cc(/C=C/C#N)c1)c1c(C(N)=O)[nH]c2ccc(Cl)c(F)c12,-,K103N,-,-,0.0007 µM
Cc1csc(NC(=S)NC[C@H](C)c2ccccc2)n1,IIIB,-,p24,-,0.055 µM
O=C(Nc1cc(S(=O)(=O)O)cc2cc(S(=O)(=O)O)c(N=Nc3ccc(N=Nc4c(S(=O)(=O)O)cc5cc(S(=O)(=O)O)cc(NC(=O)c6cccc(Cl)c6Cl)c5c4O)cc3)c(O)c12)c1ccc(Cl)cc1Cl,SF162,-,-,-,0.4 µg/mL
CC(C)(C)NC(=O)[C@@H]1C[C@@H]2CCCC[C@@H]2CN1C[C@@H](O)[C@H](Cc1ccccc1)NC(=O)[C@H](CC(N)=O)NC(=O)c1ccc2ccccc2n1,BCF07,PR-L10V K20C M36I L63R A71V,-,-,0.0125 µM

The first 5 rows once more:

compound	strain	mutations	read by	conditions	result
C#C[C@]1(CO)O[C@@H](n2cnc3c(N)nc(F)nc32)C[C@@H]1O	-	-	single cycle / fluorescence	-	0.00023 µM
Cc1cn([C@H]2C[C@H](N=[N+]=[N-])[C@@H](CO)O2)c(=O)[nH]c1=O	Recombinant	RT-T215Y	p24	-	~0.02 µM
CC(C)CN(C[C@@H](O)[C@H](Cc1ccccc1)NC(=O)O[C@H]1CCOC1)S(=O)(=O)c1ccc(N)cc1	Clinical isolate	L10I K14R L33I M36I M46I F53I K55R I62V L63P A71V G73S V82A L90M I93L	p24 / luminescence	clinical isolate, multidrug-resistant	0.048 µM
Cc1cn([C@H]2C[C@H](N=[N+]=[N-])[C@@H](CO)O2)c(=O)[nH]c1=O	XM-ABC-resistant	RT-K65R L74V M184V Y115F	p24	-	<0.04 µM
Nc1nc(=O)n([C@@H]2CS[C@H](CO)O2)cc1F	LAV	-	RT activity	-	0.008 µM